Pooled drug test results. Numbers come from NIAID ChemDB, via PubChem.

Common to all: growth or infection tests; agent: HIV-1; cell line: MT-2; endpoint: EC50

ECn is the concentration giving n% inhibition of infection, replication or growth.

structure | strain | mutations | read by | value
CC(C)=CCOc1cc(NC(=S)c2ccoc2C)ccc1Cl | IIIB | - | cytopathic effect / XTT | 0.03 µM
CC(O)Cn1cnc2c(Cl)nc(N)nc21 | LAV-1 | - | RT activity | >100 µM
CC(=O)Oc1ccc(C(=O)N2CCN(C(=O)C(=O)c3c[nH]c4ccccc34)CC2)cc1 | BRU | - | RT activity | <10 µM
CC(=O)OC1C(OC(C)=O)[C@H](n2cnc3c2ncn2c(CCl)cc(=O)nc32)O[C@@H]1OC(C)=O | LAV-1 | - | RT activity | >200 µM
CC(C)=CCOc1cc(NC(=S)c2ccsc2C)ccc1Cl | IIIB | - | cytopathic effect / XTT | 0.005 µM
O=C(C(=O)N1CCN(C(=O)c2ccc(F)cc2)CC1)c1c[nH]c2ccccc12 | BRU | - | RT activity | <10 µM
Clc1ccc(Nc2nnc(Nc3c(Cl)cccc3Cl)o2)cc1 | IIIB | - | MTT | >100 µM
O=C(C(=O)N1CCN(C(=O)c2ccccc2)CC1)c1c[nH]c2ccc(F)cc12 | BRU | - | RT activity | <10 µM
CC(C)C1=C2[C@H]3CC[C@@H]4[C@@]5(C)CC[C@H](OC(=O)[C@H]6C[C@@H](C(=O)O)C6(C)C)C(C)(C)[C@@H]5CC[C@@]4(C)[C@]3(C)CC[C@@]2(CCNC(=O)C(=O)c2ccc(Cl)cc2)CC1=O | 92HT599 | - | p24 / ELISA | <1 µM
CC(CO)n1cnc2c(N)ncnc21 | LAV-1 | - | RT activity | >100 µM
Clc1cccc(Cl)c1Cc1nnc(Nc2ccc(COCc3ccco3)cc2)o1 | IIIB | - | MTT | 3.1 µM
CC(=O)Oc1cc2[nH]cc(C(=O)C(=O)N3CCN(C(=O)c4ccccc4)CC3)c2cc1OC(C)=O | BRU | - | RT activity | >10 µM
Clc1ccc(Nc2nnc(Cc3c(Cl)cccc3Cl)o2)c(Cl)c1 | IIIB | - | MTT | 2.4 µM
CC(C)C1=C2[C@H]3CC[C@@H]4[C@@]5(C)CC[C@H](OC(=O)[C@H]6C[C@@H](C(=O)O)C6(C)C)C(C)(C)[C@@H]5CC[C@@]4(C)[C@]3(C)CC[C@@]2(CC(=O)NCc2ccc3nc(-c4ccccc4)[nH]c3c2)CC1=O | 92HT599 | - | p24 / ELISA | <1 µM
Nc1nc(Cl)c2ncn([C@H]3CC[C@@H](CO)C3)c2n1 | IIIB | - | cytopathic effect | >100 µg/mL
C=C(C)[C@@H]1CC[C@]2(NC(=O)Cc3ccccc3)CC[C@]3(C)[C@H](CC[C@@H]4[C@@]5(C)CC[C@H](OC(=O)CC(C)(C)C(=O)O)C(C)(C)[C@@H]5CC[C@]43C)[C@@H]12 | IIIB | - | RT activity | >0.199 µM
CCCCCCCCCCCCCCCCOCCCOP(=O)(O)CO[C@H](CO)Cn1cnc2c(N)ncnc21 | LAI WT | - | p24 | 0.007 µM
CC(C)(C)C1=NC(c2ccccc2)(C(F)(F)F)NC(=O)N1 | HXB2 | - | p24 / ELISA | 0.0519 µM
Clc1ccc(Nc2nnc(Nc3c(Cl)cccc3Cl)o2)cc1Cl | IIIB | - | MTT | 22 µM
C=C(C)[C@@H]1CC[C@]2(NC(=O)N3CCN(C)CC3)CC[C@]3(C)[C@H](CC[C@@H]4[C@@]5(C)CC[C@H](OC(=O)CC(C)(C)C(=O)O)C(C)(C)[C@@H]5CC[C@]43C)[C@@H]12 | IIIB | - | RT activity | >0.199 µM
CC(C)[C@H](NC(=O)[C@H](Cc1ccccc1)C[C@H](O)[C@H](Cc1ccccc1)NC(=O)OC(C)(C)C)C(=O)N[C@@H](Cc1ccccc1)C(=O)N1CCOCC1 | pLAI | - | RT activity | 0.02 µM
CC(=O)COc1cc2c(c(O)c1Br)C(=O)C1C(O)=CC(C)=CC1C2=O | IIIB | - | MTT | >30 µM
CCc1cccc2c(C(=O)C(=O)N3CCN(C(=O)c4ccccc4)CC3)c[nH]c12 | - | - | RT activity | <10 µM
Nc1nc(Cl)c2ncn(CCO)c2n1 | LAV-1 | - | RT activity | >100 µM
CC(C)C1=C2[C@H]3CC[C@@H]4[C@@]5(C)CC[C@H](OC(=O)[C@H]6C[C@@H](C(=O)O)C6(C)C)C(C)(C)[C@@H]5CC[C@@]4(C)[C@]3(C)CC[C@@]2([C@@H](O)CNC(=O)C(C)(C)NC(=O)c2nc3ccccc3[nH]2)CC1=O | 92HT599 | - | p24 / ELISA | <1 µM
Clc1ccc(Cc2nnc(Cc3c(Cl)cccc3Cl)o2)cc1 | IIIB | - | MTT | 18 µM
CC(C)C1=C2[C@H]3CC[C@@H]4[C@@]5(C)CC[C@H](OC(=O)[C@H]6C[C@@H](C(=O)O)C6(C)C)C(C)(C)[C@@H]5CC[C@@]4(C)[C@]3(C)CC[C@@]2(CCNCc2ccc(Cl)cc2O[C@H]2CCOC2)CC1=O | 92HT599 | - | p24 / ELISA | <1 µM
Nc1ccn([C@H]2CC[C@@H](CO)O2)c(=O)n1 | IIIB | - | cytopathic effect | 0.29 µg/mL
C=C(C)[C@@H]1CC[C@]2(NC(=O)NC(=O)OC)CC[C@]3(C)[C@H](CC[C@@H]4[C@@]5(C)CC[C@H](OC(=O)CC(C)(C)C(=O)O)C(C)(C)[C@@H]5CC[C@]43C)[C@@H]12 | IIIB | - | RT activity | >0.199 µM
Cc1cc(C(=O)NC(C)(C)CNC(=O)C[C@@]23CC[C@]4(C)[C@H](CC[C@@H]5[C@@]6(C)CC[C@H](OC(=O)[C@H]7C[C@@H](C(=O)O)C7(C)C)C(C)(C)[C@@H]6CC[C@]54C)C2=C(C(C)C)C(=O)C3)n[nH]1 | 92HT599 | - | p24 / ELISA | <1 µM
Cc1ccc(C(=O)N2CCN(C(=O)C(=O)c3c[nH]c4ccccc34)CC2)cc1F | BRU | - | RT activity | >10 µM
COc1ncnc2c1ncn2C(C)CO | LAV-1 | - | RT activity | >100 µM
CC(C)C1=C2[C@H]3CC[C@@H]4[C@@]5(C)CC[C@H](OC(=O)[C@H]6C[C@@H](C(=O)O)C6(C)C)C(C)(C)[C@@H]5CC[C@@]4(C)[C@]3(C)CC[C@@]2([C@@H](O)CNCC2CCCCC2)CC1=O | 92HT599 | - | p24 / ELISA | <1 µM
C=C(C)[C@@H]1CC[C@]2(NC(=O)C(=O)N(C)C)CC[C@]3(C)[C@H](CC[C@@H]4[C@@]5(C)CC[C@H](OC(=O)CC(C)(C)C(=O)O)C(C)(C)[C@@H]5CC[C@]43C)[C@@H]12 | IIIB | - | RT activity | >0.199 µM
CC(C)(C)c1ccc(C(=O)N2CCN(C(=O)C(=O)c3c[nH]c4ccccc34)CC2)cc1 | BRU | - | RT activity | ~10 µM
COc1ccc2c(c1)CCC/C2=N\OC(=O)Nc1ccccc1-c1ccccc1 | IIIB | - | cytopathic effect / XTT | >100 µg/mL
COCCOc1cc(Cl)ccc1C(=O)NC(C)(C)CNCC[C@@]12CC[C@]3(C)[C@H](CC[C@@H]4[C@@]5(C)CC[C@H](OC(=O)[C@H]6C[C@@H](C(=O)O)C6(C)C)C(C)(C)[C@@H]5CC[C@]43C)C1=C(C(C)C)C(=O)C2 | 92HT599 | - | p24 / ELISA | <1 µM
CCCCCCCC/C=C\CCCCCCCOCCOP(=O)(O)CO[C@H](CO)Cn1cnc2c(N)ncnc21 | LAI | RT | p24 | 0.008 µM

For reference, 4 entries again:

structure,strain,mutations,read by,value
O=C(C(=O)N1CCN(C(=O)c2ccccc2)CC1)c1c[nH]c2ccc(F)cc12,BRU,-,RT activity,<10 µM
CCCCCCCC/C=C\CCCCCCCOCCOP(=O)(O)CO[C@H](CO)Cn1cnc2c(N)ncnc21,LAI,RT,p24,0.008 µM
CC(=O)COc1cc2c(c(O)c1Br)C(=O)C1C(O)=CC(C)=CC1C2=O,IIIB,-,MTT,>30 µM
Nc1ccn([C@H]2CC[C@@H](CO)O2)c(=O)n1,IIIB,-,cytopathic effect,0.29 µg/mL

Conditions beyond the fields shown may differ between rows. Blank or dashed fields: not listed here.